Results of unrelated studies side by side (data: NIAID ChemDB).

Shared fields: toxicity to cultured cells; cell line: VERO; endpoint: CC50

CCn is the concentration with n% toxicity to the cells. Blank or dashed fields: not listed here. Rows are shuffled and stem from different studies.

SMILES	method	value
CC[C@H]1OC(=O)[C@H](C)C(=O)[C@H](C)[C@@H](O[C@@H]2O[C@H](C)C[C@H](N(C)C)[C@H]2O)[C@](C)(OC)C[C@@H](C)C(=O)[C@H](C)[C@H]2N(NCCCc3ccnc4ccccc34)C(=O)O[C@]12C	-	26.34 µM
COc1ncc(C#C[Si](C)(C)C)c(OC)n1	trypan blue	>100 µM
Oc1[nH]c2ccc(OC(F)(F)F)cc2c1N=NC(=S)Nc1ccc(Cl)cc1	MTT	6.391 µg/mL
CC12CC3C4(CC[C@H]5C(C)(C)CCC[C@]5(C)[C@]34C1)CC2=O	-	40 µg/mL
CCOC(=O)c1cc(COc2ccnc3ccccc23)on1	-	>128 µM
C=C[C@H](OC(C)=O)c1ccc(OC(C)=O)cc1	-	2 µg/mL
Cc1ccc2nc(C(F)(F)F)c(C(=O)NCc3ccc4c(c3)CCO4)n2c1	-	>32 µM
COc1ccc2c(c1)[C@@H]1C[C@]1(C(=O)N1[C@@H]3CC[C@H]1CN(C)C3)Cn1c-2c(C2CCCCC2)c2ccc(C(=O)NS(=O)(=O)N(C)C)cc21	resazurin	32 µM
Nc1nc2c(ncn2CC2CSC(P(=O)(O)O)O2)c(=O)[nH]1	-	>100 µg/mL
Cc1ccn2c(C(=O)NCc3ccc(N4CCC5(CC4)OC[C@H](C)O5)c(F)c3)c(C)nc2c1	-	>32 µM
Fc1ccc(NC(=S)Nc2ncc(C3CCC3)o2)cc1	MTT	>215 µM
CC[C@@H](C(C)C)[C@@H](O)[C@H](O)[C@@H](C)[C@H]1CC[C@H]2[C@@H]3CC(=O)[C@H]4C[C@@H](Br)CC[C@]4(C)[C@H]3CC[C@]12C	MTT	248 µM
CC(CC[C@@H](C)C1CCC2C3C[C@H](COS(=O)(=O)O)C4C[C@H](OS(=O)(=O)O)[C@@H](OS(=O)(=O)O)C[C@]4(C)C3CC[C@@]21C)C(C)(C)C.[Na+].[Na+].[Na+]	MTT	13.83 µg/mL
Cc1ccn2c(C(=O)NCc3ccc(N4CCC(NC(=O)OC(C)(C)C)CC4)c(F)c3)c(C)nc2c1	-	>32 µM
FC(F)(F)c1ccccc1NC(=S)Nc1ncc(C2CCC2)o1	MTT	>183 µM
CC12CC[C@]3(C1)[C@@H](CC2=O)[C@H](O)C[C@H]1C(C)(C)CCC[C@@]13C	-	60 µg/mL
CC[C@@H](C(C)C)[C@@H](O)[C@H](O)[C@@H](C)[C@H]1CC[C@H]2[C@@H]3CC(=O)[C@@]4(O)C[C@@H](Br)CC[C@]4(C)[C@H]3CC[C@]12C	MTT	23 µM
CC(=O)c1ccc2oc3ccc(C(C)=O)cc3c2c1	-	16 µg/mL
CC(=O)O[C@H]1C[C@H]2C(C)(C)CCC[C@]2(C)[C@@]23CCC(C)(C2)[C@H](OC(C)=O)C[C@H]13	-	50 µg/mL
CC[C@H]1OC(=O)[C@H](C)C(=O)[C@H](C)[C@@H](O[C@@H]2O[C@H](C)C[C@H](N(C)C)[C@H]2O)[C@](C)(OC)C[C@@H](C)C(=O)[C@H](C)[C@H]2N(CCCCCc3ccccc3)C(=O)O[C@]12C	-	8.84 µM
Oc1c(N=NC(=S)Nc2ccc(Cl)cc2)c2cc(OC(F)(F)F)ccc2n1CN1CCOCC1	MTT	9.713 µg/mL
O=C(NN=Cc1ccco1)c1ccccc1Sc1ccccc1	-	>50 µg/mL
CCOC(=O)c1cc(COc2ccc3cccnc3c2)on1	-	107.6 µM
CC1(C)C=Cc2cc(C(=O)c3ccccc3)ccc2O1	-	32 µg/mL
Cc1ccn2c(C(=O)NCc3ccc(N4CCOCC4)c(F)c3)c(C)nc2c1	-	>32 µM
Cc1ccc2[nH]c(O)c(N=NC(=S)Nc3ccccc3)c2c1	MTT	1.063 µg/mL
O=[N+]([O-])c1ccnc(NC(=S)Nc2ncc(C3CCC3)o2)c1	MTT	196 µM
Cc1ccn2c(C(=O)NCc3ccc(NCCN4CCOCC4)c(F)c3)c(C)nc2c1	-	>32 µM
CN1c2c(-c3ccccc3)nn(CC(=O)N/N=C/c3ccc(Cl)cc3Cl)c2-c2ccccc2S1(=O)=O	-	88.9 µM
Cc1c(CN2CCN(C)CC2)cc(-c2ccccc2)n1-c1ccc(F)cc1	-	4 µg/mL
CC[C@H]1OC(=O)[C@H](C)C(=O)[C@H](C)[C@@H](O[C@@H]2O[C@H](C)C[C@H](N(C)C)[C@H]2O)[C@](C)(OC)C[C@@H](C)C(=O)[C@H](C)[C@H]2N(CCCCc3ccc(N)cc3)C(=O)O[C@]12C	-	26.04 µM
CCOC(=O)c1cc(COc2ccc3ccccc3n2)on1	-	>128 µM
C[C@@]1(O)[C@H](O)[C@@H](COP(=O)(O)OP(=O)(O)OP(=O)(O)O)O[C@H]1n1ccc2c(N)ncnc21	-	>320 µM
Cc1c(CN2CCSCC2)cc(-c2cccc3ccccc23)n1-c1ccccc1	-	4 µg/mL
Nc1ncnc2c1ncn2C1CC(COP(=O)(O)O)[C@@H](O)[C@H]1O	-	10 µg/mL
Cc1nc2cc(Cl)ccn2c1C(=O)NCc1ccc2c(c1)CCO2	-	>32 µM
CCN(CC)c1ccc(/C=N/NC(=O)Cn2nc(-c3ccccc3)c3c2-c2ccccc2S(=O)(=O)N3C)cc1	-	23.5 µM
Oc1ccc2oc3ccc(O)cc3c2c1	-	16 µg/mL
C#Cc1cnc(C(=O)c2ccccc2)nc1C(=O)c1ccccc1	trypan blue	>100 µM
CC12CC[C@]3(C1)[C@H](CC2=O)[C@@H](O)C[C@H]1C(C)(C)CCC[C@@]13C	-	48 µg/mL
CC(=O)c1ccc2oc3ccc(O)cc3c2c1	-	16 µg/mL
Cc1ccn2c(C(=O)NCc3ccc4c(c3)CCO4)c(C(F)(F)F)nc2c1	-	>32 µM
O=C(NN=Cc1ccc([N+](=O)[O-])o1)c1ccccc1Sc1ccccc1	-	2.92 µg/mL
CCOC(=O)c1cc(COc2ccc3ncccc3c2)on1	-	>128 µM
Cc1ccc2nc(C)c(C(=O)NCc3ccc(C(F)(F)F)cc3)n2c1	-	>32 µM
COc1ccc([C@](O)(CCN(C)C)[C@@H](c2cc3cc(Br)ccc3nc2OC)c2cccc(OC)c2OC)cn1	-	>10 µg/mL
CCN(CC)C(=O)c1cc(COc2cc(C(F)(F)F)nc3c(C(F)(F)F)cccc23)on1	-	46.5 µM
O=C(NN=Cc1cccs1)c1ccccc1Sc1ccccc1	-	>50 µg/mL
Cc1c(CN2CCN(C)CC2)cc(-c2cccc3ccccc23)n1-c1ccccc1	-	4 µg/mL
CC1(C)CCc2cc(Cc3ccccc3)ccc2O1	-	16 µg/mL
Cc1c(CN2CCN(C)CC2)cc(-c2ccccc2F)n1-c1ccccc1	-	2 µg/mL
CN1c2c(-c3ccccc3)nn(CC(=O)N/N=C/c3ccc(O)cc3O)c2-c2ccccc2S1(=O)=O	-	4.3 µM
S=C(Nc1ccc(Cl)cc1)Nc1ncc(C2CCC2)o1	MTT	>203 µM
COc1cc([C@](O)(CCN(C)C)[C@@H](c2cc3cc(Br)ccc3nc2OC)c2cccc(OC)c2F)cnc1OC	-	>10 µg/mL
C#Cc1cnc(OC(=O)c2ccccc2)nc1OC(=O)c1ccccc1	trypan blue	>100 µM
Cc1ccc2[nH]c(O)c(N=NC(=S)NC3CCCCC3)c2c1	MTT	1.572 µg/mL
COc1nc2ccc(Br)cc2cc1[C@@H](c1cccc(F)c1)[C@@](O)(CCN(C)C)c1cncc(C)c1	-	>10 µg/mL
CCC#CCCCCCCCCN1C(=O)O[C@]2(C)[C@@H](CC)OC(=O)[C@H](C)C(=O)[C@H](C)[C@@H](O[C@@H]3O[C@H](C)C[C@H](N(C)C)[C@H]3O)[C@](C)(OC)C[C@@H](C)C(=O)[C@H](C)[C@@H]12	-	8.71 µM
Cc1c(CN2CCN(C)CC2)cc(-c2ccccc2Cl)n1-c1ccccc1	-	4 µg/mL
Nc1nc2c(ncn2C[C@H]2CC[C@H](P(=O)(O)O)O2)c(=O)[nH]1	-	>100 µg/mL
COc1cccc2c1C(=O)c1c(O)c3c(c(O)c1C2=O)C[C@@](O)(C(=O)CO)C[C@@H]3O[C@H]1C[C@H](N)[C@H](O)[C@H](C)O1	-	97 µM
CC1(C)CCC[C@@]2(C)[C@H]1C[C@H](O)[C@H]1C[C@@H](O)C3(C)CC[C@]12C3	-	30 µg/mL
C=C(C)/C=C/[C@]12C[C@H](C)[C@H]3CC[C@](C)(N)[C@@H](CC[C@H]1C)[C@@H]32	-	>128 µg/mL
O=C(NN=Cc1ccc([N+](=O)[O-])cc1)c1ccccc1Sc1ccccc1	-	>50 µg/mL
CC[C@H](/C=C/[C@@H](C)[C@H]1CC[C@H]2[C@@H]3CC=C4C[C@@H](O)CC[C@]4(C)[C@H]3CC[C@]12C)C(C)C	MTT	479 µM
Oc1[nH]c2ccc(OC(F)(F)F)cc2c1N=NC(=S)Nc1ccc(Br)cc1	MTT	5.767 µg/mL
CN1c2c(-c3ccccc3)nn(CC(=O)N/N=C/c3ccc([N+](=O)[O-])cc3)c2-c2ccccc2S1(=O)=O	-	>100 µM
CC(=O)O[C@H]1C[C@H]2C(C)(C)CCC[C@]2(C)[C@@]23CCC(C)(C2)[C@@H](O)C[C@H]13	-	50 µg/mL
COc1cccc([C@H](c2cc3cc(Br)ccc3nc2OC)[C@@](O)(CCN(C)C)c2ccnc(C)c2)c1F	-	>10 µg/mL

Repeating the final 7 entries:

SMILES	method	value
C=C(C)/C=C/[C@]12C[C@H](C)[C@H]3CC[C@](C)(N)[C@@H](CC[C@H]1C)[C@@H]32	-	>128 µg/mL
O=C(NN=Cc1ccc([N+](=O)[O-])cc1)c1ccccc1Sc1ccccc1	-	>50 µg/mL
CC[C@H](/C=C/[C@@H](C)[C@H]1CC[C@H]2[C@@H]3CC=C4C[C@@H](O)CC[C@]4(C)[C@H]3CC[C@]12C)C(C)C	MTT	479 µM
Oc1[nH]c2ccc(OC(F)(F)F)cc2c1N=NC(=S)Nc1ccc(Br)cc1	MTT	5.767 µg/mL
CN1c2c(-c3ccccc3)nn(CC(=O)N/N=C/c3ccc([N+](=O)[O-])cc3)c2-c2ccccc2S1(=O)=O	-	>100 µM
CC(=O)O[C@H]1C[C@H]2C(C)(C)CCC[C@]2(C)[C@@]23CCC(C)(C2)[C@@H](O)C[C@H]13	-	50 µg/mL
COc1cccc([C@H](c2cc3cc(Br)ccc3nc2OC)[C@@](O)(CCN(C)C)c2ccnc(C)c2)c1F	-	>10 µg/mL